Results of unrelated studies side by side (data: NIAID ChemDB).

All rows: whole-cell or culture tests; species: Candida albicans; measure: MIC

Conditions beyond the fields shown may differ between rows.

compound,strain,value
COc1cccc(/C=c2\c(=O)[nH][nH]\c2=C2/C(=O)c3ccccc3N(C)C2=O)c1,ATCC 10231,>100 µg/mL
O[C@](Cn1cncn1)(Cn1cnc(/C=C/c2ccc(OCC(F)(F)C(F)F)cc2)n1)c1ccc(F)cc1F,Isolate 04-32,0.5 µg/mL
COc1ccc([C@@H]2COc3c(ccc(O)c3OC)C2)c(O)c1,-,10 µg/mL
CCc1c(Cc2ccc(Cl)cc2)nc(SCCN2C(=O)c3ccccc3C2=O)[nH]c1=O,ATCC 10231,100 µg/mL
C[C@@H](CC1COC(/C=C/C=C/c2ccc(C#N)cc2F)OC1)[C@](O)(Cn1cncn1)c1ccc(F)cc1F,TIMM3164,0.016 µg/mL
O=C(Nc1nc2ccc(NC(=O)[C@@H]3CCC[C@H](NCc4ccc5ccccc5c4)C3)cc2s1)C1CCCC1,IFM 5743,25 µM
S=c1c2cccnc2sn1CCc1ccccc1,-,30 µg/mL
CC1C(=O)C(C)C(c2ccccc2)N(OCCc2nc3ncccc3[nH]2)C1c1ccccc1,6 (NCIM-C27),200 µg/mL
Cc1ccc(N=Cc2c(-c3c(O)c4ccccc4n(C)c3=O)[nH][nH]c2=O)cc1,ATCC 10231,25 µg/mL
CCCCCn1sc2ncccc2c1=S,-,20 µg/mL
Cc1nc2cc(Cl)ccc2c(=O)n1[C@H](C)[C@](O)(Cn1cncn1)c1ccc(F)cc1F,76 strains,10 µg/mL
CC(=O)O/N=C(\c1ccc(C)cc1)c1cc2ccccc2o1,-,8 µg/mL
O=C(Nc1ccc2c(c1)Sc1ccccc1O2)c1ccc(Cl)cc1Cl,C316,5 µg/mL
CCC(C)CC(C)CCCCCCCCC(=O)N[C@H]1C[C@@H](O)[C@@H](OCCN)NC(=O)[C@@H]2[C@@H](O)CCN2C(=O)[C@H]([C@@H](O)CCN)NC(=O)[C@H]([C@H](O)[C@@H](O)c2ccc(O)cc2)NC(=O)[C@@H]2C[C@@H](O)CN2C(=O)[C@H]([C@H](C)O)NC1=O,ATCC 90028,≤0.007 µg/mL
CCCCCCn1sc2ncccc2c1=S,-,30 µg/mL
Clc1nnc2c(cnc3ccccc32)n1,M-3,≤10 µg/mL
CCCCN=c1ssc2ncccc12,-,25 µg/mL
CC(C)C(=O)CCC[C@@H]1CO[C@@](Cn2ccnc2)(c2ccc(F)cc2F)C1,A.10231,25 µg/mL
CCCCn1sc2ncccc2c1=O,-,20 µg/mL
C[C@@H](NC(=O)c1ccc(Cl)cc1N)[C@](O)(Cn1cncn1)c1ccc(F)cc1F,60 strains,0.07 µg/mL
Cn1c(=O)c(-c2[nH][nH]c(=O)c2N=Nc2cccc(Cl)c2)c(O)c2ccccc21,ATCC 10231,>100 µg/mL
O=C(Nc1ccc(Cl)c(Cl)c1)Nc1ccc2c(c1)Sc1ccccc1O2,C316,0.8 µg/mL
C[C@H]1[C@H](O)[C@@H](C)/C=C/C=C/C=C/C=C/C=C/C=C/C=C/[C@H](O[C@@H]2O[C@H](C)[C@@H](O)[C@H](N)[C@@H]2O)C[C@@H]2O[C@](O)(C[C@@H](O)C[C@@H](O)CC[C@H](O)[C@@H](O)C[C@@H](O)CC(=O)O[C@H]1C)C[C@H](O)[C@H]2C(=O)O,A25578 (flucytosine-resistant),0.13 µg/mL
COc1ccc(C[C@H](NC(=O)[C@@H](N)Cc2ccc(OC)cc2)C(=O)N[C@H]2[C@@H](O)[C@H](n3cnc4c(N)ncnc43)O[C@@H]2C(=O)O)cc1,FP633,>100 µg/mL
C=CCNC(=S)Nc1ccc(S(=O)(=O)Nc2ccc3c(c2)Sc2ccccc2O3)cc1,C316,1.1 µg/mL
CO/N=C(\c1ccc(C)cc1)c1cc2ccccc2o1,-,1 µg/mL
CC1C(=O)C(C)C(c2ccc(Cl)cc2)N(OCCc2nc3ncccc3[nH]2)C1c1ccc(Cl)cc1,6 (NCIM-C27),50 µg/mL
C[C@@H](n1cnc2cc(N3CCN(C)CC3)ccc2c1=O)[C@](O)(Cn1cncn1)c1ccc(F)cc1F,76 strains,10 µg/mL
C#CCSCC(N)C(=O)N[C@H]1[C@@H](O)[C@H](n2cnc3c(N)ncnc32)O[C@@H]1C(=O)O,FP633,0.2 µg/mL
CC(C)=CCc1cc(O)c(O)c(CC=C(C)C)c1-c1oc2c(CC=C(C)C)c(O)cc(O)c2c(=O)c1O,NIH B311,>100 µg/mL
CCCCCNC(=O)C1C(O)CC2(O)CC(O)CC(O)CC(O)CC(O)CC(=O)CC(O)CC(=O)OC(C(C)CCC(O)CC(=O)c3ccc(NC)cc3)C(C)/C=C/C=C/C=C\C=C/C=C/C=C/C=C/C(O[C@@H]3O[C@H](C)[C@@H](O)[C@H](N)[C@@H]3O)CC1O2,200,0.24 µg/mL
CC(O)CN=c1ssc2ccccc12,-,15 µg/mL
O=C(ONC1=Nc2ccccc2SCC1)c1ccccc1,CBS 562,>100 µg/mL
C[C@@H](SC1COC(/C=C/C=C/c2ccc(C#N)cc2F)OC1)[C@](O)(Cn1cncn1)c1ccc(F)cc1F,TIMM3165,0.063 µg/mL
ONC1=Nc2ccccc2SC(c2ccccc2)C1,CBS 562,>100 µg/mL
O=S(=O)(Nc1ccc2c(c1)Sc1ccccc1O2)c1c(F)c(F)c(F)c(F)c1F,C316,0.5 µg/mL
Nc1ncnc2c1ncn2[C@@H]1O[C@H](C(=O)O)[C@@H](NC(=O)[C@H](N)CSCc2ccc(CN3CCOCC3)cc2)[C@H]1O,FP633,25 µg/mL
CC(CO)(CO)n1sc2ccccc2c1=S,-,20 µg/mL
Nn1c(C23CC4CC(CC(C4)C2)C3)n[nH]c1=S,CNCM 1180-79,>300 µg/mL
CNc1ccc(C(=O)CC(O)CCC(C)C2OC(=O)CC(O)CC(=O)CC(O)CC(O)CC(O)CC(O)CC3(O)CC(O)C(C(=O)N4CCN(CCO)CC4)C(CC(O[C@@H]4O[C@H](C)[C@@H](O)[C@H](NC(=O)CN(C)C)[C@@H]4O)/C=C/C=C/C=C/C=C\C=C/C=C/C=C/C2C)O3)cc1,73,0.0075 µg/mL
COC(=O)[C@H]1O[C@@H](n2cnc3c(N)ncnc32)[C@H](O)[C@@H]1NC(=O)[C@@H](N)CSC,FP633,>100 µg/mL
CC(CO)(CO)N=c1ssc2ccccc12,-,20 µg/mL
ONC1=Nc2cnc3ccccc3c2SC1,CBS 562,>100 µg/mL
COc1ccc(/C(=N\OC(C)=O)c2cc3ccccc3o2)cc1,-,64 µg/mL
O=C(Nc1ccc(S(=O)(=O)Nc2ccc3c(c2)Sc2ccccc2O3)cc1)Nc1ccc(Cl)c(Cl)c1,C316,0.6 µg/mL
O=C(ONC1=Nc2ccc(Cl)cc2SCC1)c1ccccc1,CBS 562,>100 µg/mL
OC(Cn1cncn1)(Cn1cncn1)c1ccc(F)cc1F,E81022,0.39 µg/mL
CC(C)C(=O)CCC[C@@H]1CO[C@@](Cn2cncn2)(c2ccc(F)cc2F)C1,IFO. 1385,<0.1 µg/mL
CC(O)Cn1sc2ccccc2c1=S,-,15 µg/mL
Nn1c(C2CCCCC2)n[nH]c1=S,CNCM 1180-79,240 µg/mL
CCc1c(Cc2ccc(Cl)cc2)nc(SCCN2CCCC2)[nH]c1=O,ATCC 10231,25 µg/mL
C[C@H]1[C@H](O)[C@@H](C)/C=C/C=C/C=C/C=C/C=C/C=C/C=C/[C@H](O[C@@H]2O[C@H](C)[C@@H](O)[C@H](N)[C@@H]2O)C[C@@H]2O[C@](O)(C[C@@H](O)C[C@@H](O)CC[C@H](O)[C@@H](O)C[C@@H](O)CC(=O)O[C@H]1C)C[C@H](O)[C@H]2C(=O)O,73,0.96 µg/mL
CC(C)C(=O)CCC[C@H]1CO[C@@](Cn2ccnc2)(c2ccc(F)cc2F)C1,A.10231,25 µg/mL
COc1ccc(/C=c2\c(=O)[nH][nH]\c2=C2/C(=O)c3ccccc3N(C)C2=O)cc1OC,ATCC 10231,50 µg/mL
CC(C)C(=N)CCC=C1CO[C@@](Cn2cncn2)(c2ccc(F)cc2F)C1,B02630,>100 µg/mL
O=C(Nc1cccc(S(=O)(=O)Nc2ccc3c(c2)Sc2ccccc2O3)c1)Nc1ccc(Cl)c(Cl)c1,C316,0.5 µg/mL
CNc1ccc(C(=O)CC(O)CCC(C)C2OC(=O)CC(O)CC(=O)CC(O)CC(O)CC(O)CC(O)CC3(O)CC(O)C(C(=O)N4CCCCC4)C(CC(O[C@@H]4O[C@H](C)[C@@H](O)[C@H](N)[C@@H]4O)/C=C/C=C/C=C/C=C\C=C/C=C/C=C/C2C)O3)cc1,73,0.03 µg/mL
CC(C)C(=N)CCC=C1CO[C@@](Cn2ccnc2)(c2ccc(F)cc2F)C1,CI-2,100 µg/mL
C[C@@H](n1cnc2c(Cl)cc(Cl)cc2c1=O)[C@](O)(Cn1cncn1)c1ccc(F)cc1F,76 strains,10 µg/mL
COc1ccc(/C(=N\OC(=O)c2ccccc2)c2cc3ccccc3o2)cc1,-,8 µg/mL
Cn1c(=O)c(-c2[nH][nH]c(=O)c2N=Nc2ccc(Cl)cc2)c(O)c2ccccc21,ATCC 10231,>100 µg/mL
CC(=O)ONC1=Nc2ccccc2SC1c1ccccc1,CBS 562,>100 µg/mL
O=S(=O)(Nc1ccc2c(c1)Sc1ccccc1O2)c1ccc(Br)cc1,C316,8 µg/mL
COc1cc(O)c2c(c1CC=C(C)C)O[C@H](c1c(CC=C(C)C)cc(OC)c(OC)c1CC=C(C)C)[C@@H](O)C2=O,NIH B311,>100 µg/mL
CC(C)(CO)N=c1ssc2ccccc12,-,20 µg/mL
Nc1nnc2c(cnc3ccccc32)n1,VM-81,40 µg/mL
CC1C(=O)CC(c2ccc(Cl)cc2)N(OCCc2nc3ncccc3[nH]2)C1c1ccc(Cl)cc1,51 (NCIM-C27),12.5 µg/mL
C[C@H](n1cnc2cc(C(F)(F)F)ccc2c1=O)[C@](O)(Cn1cncn1)c1ccc(F)cc1F,406 strains,≤0.03 µg/mL
O=C(NCCCc1ccccc1)c1ccc[nH]c1=S,-,5 µg/mL
CCc1c(Cc2ccc(OC)c(OC)c2)nc(SCCN2CCOCC2)[nH]c1=O,ATCC 10231,50 µg/mL
S=c1[nH]nc(C2CCCCC2)n1-c1ccc(Cl)cc1Cl,CNCM 1180-79,>300 µg/mL
CCc1c(Cc2ccc(Cl)cc2)nc(SCCN2CCOCC2)[nH]c1=O,ATCC 10231,100 µg/mL
COc1ccc(C2CC(=O)C(C)C(c3ccc(OC)cc3)N2OCCc2nc3ncccc3[nH]2)cc1,NCIM-C27,25 µg/mL

Again, the opening 6 rows:

compound,strain,value
COc1cccc(/C=c2\c(=O)[nH][nH]\c2=C2/C(=O)c3ccccc3N(C)C2=O)c1,ATCC 10231,>100 µg/mL
O[C@](Cn1cncn1)(Cn1cnc(/C=C/c2ccc(OCC(F)(F)C(F)F)cc2)n1)c1ccc(F)cc1F,Isolate 04-32,0.5 µg/mL
COc1ccc([C@@H]2COc3c(ccc(O)c3OC)C2)c(O)c1,-,10 µg/mL
CCc1c(Cc2ccc(Cl)cc2)nc(SCCN2C(=O)c3ccccc3C2=O)[nH]c1=O,ATCC 10231,100 µg/mL
C[C@@H](CC1COC(/C=C/C=C/c2ccc(C#N)cc2F)OC1)[C@](O)(Cn1cncn1)c1ccc(F)cc1F,TIMM3164,0.016 µg/mL
O=C(Nc1nc2ccc(NC(=O)[C@@H]3CCC[C@H](NCc4ccc5ccccc5c4)C3)cc2s1)C1CCCC1,IFM 5743,25 µM

An empty or dashed field is not shown.